Measured data: PubChem BioAssay AID624099 (ICCB-Longwood, 2012)
The deposit covers about 21,000 reagents; shown is a random part of them. 497 of them (2.4%) count as active. 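Higher z means weaker E2 silencing; only reporter increases were scored, and knock-downs that hurt cell survival may mask genuine repressor factors.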 Reagents against one gene are numbered here.

Aim: 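Host factors E2 relies on to silence an HPV18 LCR reporter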 (primary screen)
Cells: human C33A cervical carcinoma cells (HPV-negative) stably expressing BPV1 E2 and an HPV18 LCR luciferase reporter
Reagent: siRNA pool against human genes, 40 nM
Timing: 72 h
Read-out: 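HPV18 LCR reporter light per well, converted to plate-wise z-scores that exclude control wells, and averaged over triplicate plates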
Reading the numbers: mean z-score and z-score: higher = stronger reporter signal, weaker E2 silencing
Hit rule: 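Hit if mean z-score reaches 2 and two or more of three replicate z-scores also reach 2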

| Target gene | reagent no. | mean z-score | z-score, replicate A | z-score, replicate B | z-score, replicate C | call |
| --- | --- | --- | --- | --- | --- | --- |
| TTC7A | 1 | -0.34 | -0.42 | -0.5 | -0.09 | inactive |
| AP2B1 | 1 | 1.05 | 0.86 | 1.41 | 0.89 | inactive |
| LETM1 | 1 | 1.09 | 1.23 | 0.75 | 1.28 | inactive |
| TAS2R60 | 1 | 0.54 | 0.46 | 0.77 | 0.39 | inactive |
| STARD10 | 1 | -1.35 | -1.05 | -1.18 | -1.81 | inactive |
| LHFPL2 | 1 | 0.08 | 0.12 | 0.05 | 0.08 | inactive |
| LHFPL2 | 2 | 2.77 | 2.98 | 2.84 | 2.5 | active |
| TNMD | 1 | -0.28 | -0.64 | -0.16 | -0.04 | inactive |
| LINC01018 | 1 | -1.08 | -1.11 | -0.97 | -1.15 | inactive |
| MOB3C | 1 | -0.11 | -0.99 | 0.05 | 0.63 | inactive |
| KIF2C | 1 | 1.01 | 0.93 | 1.01 | 1.08 | inactive |
| HEATR4 | 1 | -1.29 | -1.39 | -1.35 | -1.13 | inactive |
| GPR146 | 1 | 1.1 | 1.22 | 1.12 | 0.96 | inactive |
| LOC401732 (retired record) | 1 | 0.16 | 0.1 | 0.08 | 0.3 | inactive |
| RASSF4 | 1 | -0.05 | 0.05 | -0.14 | -0.06 | inactive |
| RTKN | 1 | 0.09 | -0.1 | 0.28 | 0.09 | inactive |
| SLC18A1 | 1 | 0.16 | 0.46 | 0.12 | -0.1 | inactive |
| DDX51 | 1 | -0.74 | -0.63 | -1.32 | -0.25 | inactive |
| ZNF525 | 1 | -0.99 | -1.26 | -0.83 | -0.87 | inactive |
| TMEM132D | 1 | -0.61 | -0.65 | -0.33 | -0.84 | inactive |
| JPH3 | 1 | -0.79 | -0.71 | -0.92 | -0.74 | inactive |
| MAP3K15 | 1 | 0.99 | 0.97 | 0.97 | 1.03 | inactive |
| SPATA41 | 1 | -1.02 | -1.22 | -1.07 | -0.76 | inactive |
| LINC01096 | 1 | 0.46 | 0.38 | 0.56 | 0.45 | inactive |
| SARNP | 1 | -0.54 | -0.41 | -0.52 | -0.69 | inactive |
| FIGNL1 | 1 | -1.26 | -1.48 | -1.48 | -0.82 | inactive |

Just “mean z-score”, for 9 of the entries above:
DDX51	-0.74
ZNF525	-0.99
TMEM132D	-0.61
JPH3	-0.79
MAP3K15	0.99
SPATA41	-1.02
LINC01096	0.46
SARNP	-0.54
FIGNL1	-1.26

The results go on:
| Target gene | reagent no. | mean z-score | z-score, replicate A | z-score, replicate B | z-score, replicate C | call |
| --- | --- | --- | --- | --- | --- | --- |
| GPR3 | 1 | -0.17 | -0.13 | -0.14 | -0.23 | inactive |
| EXT2 | 1 | -0.68 | -0.96 | -0.59 | -0.49 | inactive |
| RAD23A | 1 | -0.91 | -1.06 | -0.93 | -0.74 | inactive |
| PHF1 | 1 | 2.11 | 2.1 | 2.36 | 1.88 | active |
| TCHHL1 | 1 | 0.8 | 1.11 | 0.49 | 0.81 | inactive |
| AFP | 1 | 2.29 | 2.32 | 2.24 | 2.32 | active |
| OR2S2 | 1 | 0.29 | 0.33 | 0.52 | 0.02 | inactive |
| CYRIB | 1 | 1.9 | 2.14 | 2.21 | 1.35 | inactive |
| CST8 | 1 | 0.05 | -0.06 | -0.11 | 0.32 | inactive |
| CD300E | 1 | -0.03 | -0.07 | 0 | -0.03 | inactive |
| CFAP69 | 1 | -0.13 | 0.64 | 0.07 | -1.09 | inactive |
| RYR2 | 1 | 1.32 | 1.2 | 1.31 | 1.47 | inactive |
| KRT16 | 1 | 0.72 | 0.69 | 0.63 | 0.82 | inactive |
| HRC | 1 | 1.09 | 0.85 | 0.97 | 1.46 | inactive |
| SSU72P1 | 1 | 1.74 | 1.95 | 1.59 | 1.69 | inactive |
| GPSM3 | 1 | 0.44 | 0.08 | 0.08 | 1.15 | inactive |
| FAU | 1 | -2.92 | -3.1 | -2.87 | -2.81 | inactive |
| TMEM178A | 1 | -0.87 | -0.64 | -0.9 | -1.05 | inactive |
| GSTM5 | 1 | -0.38 | -0.15 | -0.48 | -0.5 | inactive |
| LOC254938 (retired record) | 1 | 0.04 | -0.1 | -0.47 | 0.7 | inactive |
| ATXN3 | 1 | 0.69 | 0.52 | 0.83 | 0.73 | inactive |
| DCUN1D2 | 1 | 0.73 | 0.66 | 1.06 | 0.47 | inactive |
| NR1D2 | 1 | -0.42 | -0.46 | -0.48 | -0.32 | inactive |
| TCF12 | 1 | -0.57 | -0.69 | -0.5 | -0.53 | inactive |
| TLCD3B | 1 | 0.74 | 0.58 | 0.74 | 0.91 | inactive |
| DNAL1 | 1 | 0.75 | 0.82 | 0.68 | 0.74 | inactive |
| SIRPB2 | 1 | 0.22 | 0.06 | 0.01 | 0.59 | inactive |
| NUFIP1 | 1 | -0.76 | -0.6 | -0.81 | -0.87 | inactive |
| F8 | 1 | -0.72 | -0.4 | -1.08 | -0.68 | inactive |
| UBA6 | 1 | -0.3 | -0.29 | -0.72 | 0.11 | inactive |
| LOC390335 (retired record) | 1 | -0.7 | -0.92 | -0.85 | -0.32 | inactive |
